Pooled drug test results. Numbers come from NIAID ChemDB, via PubChem.

Common to all: whole-cell or culture tests; agent: Candida albicans; measure: MIC

An empty or dashed field is not shown. Lines come from different laboratories, so protocols vary. a–b is a range or a potency band.

smiles | strain or isolate | read by | value
O=C(N/N=C/c1ccc(Br)cc1)c1cc(-c2ccc(Br)cc2)nc2ccccc12 | ATCC 10231 |  | 100–200 µg/mL
Cc1c(S(=O)(=O)c2ccccc2)[n+](=O)c2ccccc2n1[O-] | Clinical isolate 6 |  | 7.8 µg/mL
NS(=O)(=O)c1nnc(NS(=O)(=O)c2ccc(NC(=O)NS(=O)(=O)c3ccccc3)cc2)s1 | C316 |  | >100 µg/mL
Cc1ccc2nc(-c3ccccc3Cl)oc2c1 |  |  | 25 µg/mL
CCCc1ncc(C(N)=S)nc1SC | ATCC 44859 |  | >31.25 µg/mL
O=C(N/N=C/c1ccccc1[N+](=O)[O-])c1ccc(F)cc1 | ATCC 2091 |  | 125 µg/mL
COc1ccc(CCN2C3=NC[C@H](Cc4ccccc4)N3C[C@@H]2Cc2ccccc2)cc1OC | ATCC 10231 |  | >250 µg/mL
COC1CC2CCC(C)C(O)(O2)C(=O)C(=O)N2CCCCC2C(=O)OC(C(C)CC2CCC(O)C(OC)C2)CC(=O)C(C)/C=C(\C)[C@@](O)(c2ccc(C)s2)C(OC)C(=O)C(C)CC(C)/C=C/C=C/C=C/1C | WILD TYPE |  | >100 µg/mL
COc1ccccc1-c1nc2ccc(C)cc2o1 |  |  | 25 µg/mL
O=C(N/N=C/c1ccc([N+](=O)[O-])cc1)c1ccc(F)cc1 | ATCC 2091 |  | 125 µg/mL
CCCCc1ncc(C(N)=S)nc1SCCC | ATCC 44859 |  | >31.25 µg/mL
CO[C@H]1[C@@H](O)[C@H](O)[C@H](OC[C@@]23C[C@@H]4[C@H](C)CC[C@H]4[C@@]4(C=O)C[C@@H]2C=C(C(C)C)[C@@]34C(=O)O)O[C@@H]1C | 2005E |  | 8 µg/mL
COc1ccc(/C=N/NC(=O)c2cc(-c3ccc(Cl)cc3)nc3ccc(Cl)cc23)cc1 | ATCC 10231 |  | 50–100 µg/mL
CC(C)(C)C1CCC(CN2C3=NC[C@H](CC4CCCCC4)N3C[C@@H]2C2CCCCC2)CC1 | ATCC 10231 |  | 8–16 µg/mL
Cc1ccc2oc(-c3ccc(Cl)cc3Cl)nc2c1 |  |  | 25 µg/mL
CCCCc1ncc(C(N)=S)nc1Sc1ccccc1 | ATCC 44859 |  | >31.25 µg/mL
CCC(C)n1ncn(-c2ccc(N3CCN(c4ccc(OC[C@@H]5CO[C@@](Cn6cncn6)(c6ccc(F)cc6F)C5)cc4)CC3)cc2)c1=O | C-43 |  | 0.0039 µg/mL
CCSc1nc(C(N)=O)cnc1CC(C)C | ATCC 44859 |  | >31.25 µg/mL
C=CCN1C[C@H](OC[C@@]23C[C@@H]4[C@H](C)CC[C@H]4[C@@]4(C=O)C[C@@H]2CC(C(C)C)[C@@]34C(=O)O)O[C@H](C)C1 | CL-245 (fluconazole-resistant) |  | ≤0.001 µg/mL
CCCCSc1nc(C(N)=S)cnc1CCCC | ATCC 44859 |  | >31.25 µg/mL
O=C(c1c[nH]c2ccccc12)[C@H](O)CO | ATCC 10231 | turbidity | >128 µg/mL
COc1ccc(-c2nc3cc(C)ccc3o2)c(OC)c1 |  |  | 25 µg/mL
CC(C)(C)C1CCC(CN2C3=NC[C@H](CC4CCCCC4)N3C[C@H]2CC2CCCCC2)CC1 | ATCC 10231 |  | 5–8 µg/mL
CCCCSc1nc(C(N)=O)cnc1C(C)(C)C | ATCC 44859 |  | >31.25 µg/mL
CC[C@H](C)n1ncn(-c2ccc(N3CCN(c4ccc(OC[C@@H]5CO[C@@](Cn6cncn6)(c6ccc(F)cc6F)C5)cc4)CC3)cc2)c1=O | C-43 |  | 0.0039 µg/mL
CC(C)(C)C1CCC(CN2C3=NC[C@@H](CC4CCCCC4)N3C[C@H]2C2CCCCC2)CC1 | ATCC 10231 |  | 10–16 µg/mL
CCOc1cc2c(cc1F)n([O-])c(C)c(S(=O)(=O)c1ccccc1)[n+]2=O | Clinical isolate 10 |  | 31.25 µg/mL
CC(C)(C)C1CCC(CN2C3=NC[C@@H](CC4CCCCC4)N3C[C@@H]2CC2CCCCC2)CC1 | ATCC 10231 |  | 3–4 µg/mL
C=C=CCN1C[C@H](OC[C@@]23C[C@@H]4[C@H](C)CC[C@H]4[C@@]4(C=O)C[C@@H]2CC(C(C)C)[C@@]34C(=O)O)O[C@H](C)C1 | CL-245 (fluconazole-resistant) |  | ≤0.001 µg/mL
Cc1ccc2oc(-c3ccccc3Cl)nc2c1 |  |  | 25 µg/mL
CC(C)Cc1ncc(C(N)=S)nc1Sc1ccccc1 | ATCC 44859 |  | >31.25 µg/mL
CCCCCCCCCOCC(OC)C(=O)O | ATCC 14053 |  | 2600 µM
Cc1ccc2nc(-c3ccccc3F)oc2c1 |  |  | 25 µg/mL
COC1CC2CCC(C)C(O)(O2)C(=O)C(=O)N2CCCCC2C(=O)OC(C(C)CC2CCC(O)C(OC)C2)CC(=O)C(C)/C=C(\C)C(O)C(OC)C(=O)C(C)C[C@](C)(N(O)C(=O)NN2CCCCC2)/C=C/C=C/C=C/1C | RBP1/RBP1 |  | >100 µg/mL
COc1ccc(CN2C[C@H](OC[C@@]34C[C@@H]5[C@H](C)CC[C@H]5[C@@]5(C=O)C[C@@H]3CC(C(C)C)[C@@]45C(=O)O)O[C@H](C)C2)cc1 | 4711E |  | ≤0.001 µg/mL
CC1(C)C2CCC3=C(CC[C@]4(C)CCC[C@@]34C)[C@@]2(C)CC[C@@H]1O | IP 1180.79 |  | >250 µM
CC(=O)N1N=C(c2ccc(F)cc2)OC1c1ccc([N+](=O)[O-])cc1 | ATCC 2091 |  | 250 µg/mL
O=C(N/N=C/c1ccc(Cl)cc1)c1cc(-c2ccc(Br)cc2)nc2ccccc12 | ATCC 10231 |  | 50–100 µg/mL
Cc1c(Sc2ccccc2)[n+](=O)c2cc(Cl)ccc2n1[O-] | Clinical isolate 22 |  | 7.8 µg/mL
NS(=O)(=O)c1nnc(NS(=O)(=O)c2ccc(NC(=O)NS(=O)(=O)c3ccc(Cl)cc3)cc2)s1 | C316 |  | 86 µg/mL
CCc1nc(CCC(=O)O)cnc1CCC(=O)O | ATCC 32354 | turbidity | >128 µg/mL
CCCCc1ncc(C(N)=S)nc1SCC | ATCC 44859 |  | >31.25 µg/mL
Cc1ccc(-c2nc3cc(C)ccc3o2)c(C)c1 |  |  | 25 µg/mL
COc1ccc(-c2cc(C(=O)N/N=C/c3ccc([N+](=O)[O-])cc3)c3cc(Cl)ccc3n2)cc1 | ATCC 10231 |  | 25 µg/mL
O=C(N/N=C/c1ccc([N+](=O)[O-])o1)c1ccc(F)cc1 | ATCC 2091 |  | 62.5 µg/mL
Cc1ccc(-c2cc(C(=O)N/N=C/c3ccc(Cl)cc3)c3ccccc3n2)cc1 | ATCC 10231 |  | 50–100 µg/mL
Clc1ccc(CO/N=C(/Cn2ccnc2)c2ccc(Cl)cc2Cl)c(Cl)c1 |  |  | 6.25 µg/mL
Cc1c(Sc2ccccc2)[n+](=O)c2cc(C(F)(F)F)ccc2n1[O-] | Clinical isolate 16 |  | 15.6 µg/mL
O=C(N/N=C/c1ccccc1)c1cc(-c2ccc(Br)cc2)nc2ccc(Cl)cc12 | ATCC 10231 |  | 100–200 µg/mL

Repeating the first 6 entries:

smiles	strain or isolate	read by	value
O=C(N/N=C/c1ccc(Br)cc1)c1cc(-c2ccc(Br)cc2)nc2ccccc12	ATCC 10231		100–200 µg/mL
Cc1c(S(=O)(=O)c2ccccc2)[n+](=O)c2ccccc2n1[O-]	Clinical isolate 6		7.8 µg/mL
NS(=O)(=O)c1nnc(NS(=O)(=O)c2ccc(NC(=O)NS(=O)(=O)c3ccccc3)cc2)s1	C316		>100 µg/mL
Cc1ccc2nc(-c3ccccc3Cl)oc2c1			25 µg/mL
CCCc1ncc(C(N)=S)nc1SC	ATCC 44859		>31.25 µg/mL
O=C(N/N=C/c1ccccc1[N+](=O)[O-])c1ccc(F)cc1	ATCC 2091		125 µg/mL